Results as given in patent publication US20200123233A1, “Amino acid sequences directed against envelope proteins of a virus and polypeptides comprising the same for the treatment of viral diseases” (published 2020).

Legend:
[1] = molecular target: F protein of RSV Long escape mutant R7C2/1 (K272E) (human respiratory syncytial virus, strain Long escape mutant); test: cell-based or functional assay
[2] = molecular target: F protein of RSV Long escape mutant R7C2/11 (K272T) (human respiratory syncytial virus, strain Long escape mutant); test: cell-based or functional assay

“Synagis (Palivizumab, MedImmune, humanized monoclonal antibody)” gave an IC50, hRSV micro neutralization of escape mutant [1] greater than 200 nM and an IC50, hRSV micro neutralization of escape mutant [2] greater than 200 nM.
